For the series, the target named is T1, HU PG0121 (tagless) (Porphyromonas gingivalis W83) (UniProt Q7MXP9).
T1 sequence (looked up, limits assumed): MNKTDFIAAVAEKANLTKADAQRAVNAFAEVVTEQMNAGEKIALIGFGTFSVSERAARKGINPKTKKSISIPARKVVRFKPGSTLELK
As to the kind of experiment: EMSA. The note with it: EMSA: 52.5 mM HEPES pH 6.5, 50 uM EDTA, 9.5% glycerol, 100 mM KCl, 50 ug/ml BSA, 30 min, room temperature, 6% native PAGE in 0.5x TBE, recombinant protein, label: 5'-32P.

Construct, isoform or probe ends are uncertain for at least one entry. At least one verdict was read from the data and is not stated in words by the source. Where a protein sequence is shown, tags need not be part of it.

As to “CAGGACAATCGCATTTGAACCGTTACACACTTATAGATCTCATGATTGCTACATTCAATTATCAAACAAGTGCGAAT (double strand) [Homoduplex II]”, the binding result (affinity rank 7 of 11, Kd only in Fig 3, single experiment) was “binds”.

For “CAGGGCAATCGCATTTGAACCGTTACACACTTATAGATCTAACGATTGCTACGCTCGGTTATCAAACAAGTACGAAT (double strand) [Homoduplex I]”, the Kd stood at 84 nM.

Regarding “CAGGGCAATCGCATTTGAACCGTTACACACTTATAGATCTAACGATTGCTACGCTCGGTTATCAAACAAGTACGAAT / ATCTATAAGTGTGTAACGGTTCAAATGCGATTGCCCTG / ATTCGTACTTGTTTGATAACCGAGCGTAGCAATCGTT [Gap-2]”, the binding result (affinity rank 5 of 11, Kd only in Fig 3) was “binds”.

Turning to “CAGGGCAATCGCATTTGAACCGTTACACACTTATAGATCTAACGATTGCTACGCTCGGTTATCAAACAAGTACGAAT / ATCTATAAGTGTGTAACGGTTCAAATGCGATTGCCCTG / ATTCGTACTTGTTTGATAACCGAGCGTAGCAATCGTTA [Gap-1]”, the binding result (affinity rank 3 of 11, Kd only in Fig 3) is recorded as “binds”.

Consider “CAGGGCAATCGCATTTGAACCGTTACACACTTATAGATCTAACGATTGCTACGCTCGGTTATCAAACAAGTACGAAT / ATTCGCACTTGTTTGATAATTGAATGTAGCAATCATGAGATCTATAAGTGTGTAACGGTTCAAATGCGATTGTCCTG [Heteroduplex I]”, for which the Kd was found to be 67.5 nM.

For the sequence “CAGGGCAATCGCATTTGAACCGTTACACACTTATAGATCTAACGATTGCTACGCTCGGTTATCAAACAAGTACGAAT / ATTCGTACTTGTTTGATAACCGAGCGTAGCAAAGGTTAGATCTTAAAGTGTGTAACGGTTCAAATGCGATTGCCCTG [Loop (original, central)]”, the binding result (affinity rank 2 of 11, Kd only in Fig 3) is listed as “binds”.

Take “CAGGGCAATCGCATTTGAACCGTTACACACTTATAGATCTAACGATTGCTACGCTCGGTTATCAAACAAGTACGAAT / ATTCGTACTTGTTTGATAACCGAGCGTAGCAATCCCCGTTAGATCTCCCATAAGTGTGTAACGGTTCAAATGCGATTGCCCTG [Bulges]”: the binding result (affinity rank 1 of 11, Kd only in Fig 3) is listed as “binds”.

On to “CAGGGCAATCGCATTTGAACCGTTACACACTTATAGATCTAACGATTGCTACGCTCGGTTATCAAACAAGTACGAAT / ATTCGTACTTGTTTGATAACCGAGCGTAGCAATCGTTAGATCTATAAGTCAGTAACGGTTGTAATGCGATTGCCCTG [Loop 2]”, for which the binding result (bend permutation) is listed as “binds”.

Take “CAGGGCAATCGCATTTGAACCGTTACACACTTATAGATCTAACGATTGCTACGCTCGGTTATCAAACAAGTACGAAT / ATTCGTACTTGTTTGTAAACCGAGCGATGCAATCGTTAGATCTATAAGTGTGTAACGGTTCAAATGCGATTGCCCTG [Loop 3]”: for the setting “bend permutation”, the binding result was “binds”.

Turning to “CAGGGCAATCGCATTTGAACCGTTACACACTTATAGATCTAACGATTGCTACGCTCGGTTATCAAACAAGTACGAAT / GTACTTGTTTGATAACCGAGCGTAGCAATCGTTAGATCTATAAGTGTGTAACGGTTCAAATGCGATTGCCCTG [3'-overhang]”, under “affinity rank 8 of 11, Kd only in Fig 3”, the binding result is “binds”.

Values taken from paper PMC3969353.
